In PMC2885016 (Nature, 2010):

Target: T1, human Cyclin T1 (1-266) (human, UniProt O60563 1-266)
T1 sequence (looked up): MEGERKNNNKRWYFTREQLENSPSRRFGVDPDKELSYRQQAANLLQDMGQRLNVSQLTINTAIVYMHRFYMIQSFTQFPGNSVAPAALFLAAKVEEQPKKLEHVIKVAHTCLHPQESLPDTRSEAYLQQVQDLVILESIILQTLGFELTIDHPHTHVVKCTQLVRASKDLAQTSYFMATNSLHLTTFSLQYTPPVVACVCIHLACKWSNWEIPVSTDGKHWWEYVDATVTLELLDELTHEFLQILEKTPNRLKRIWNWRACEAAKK
Assay: SDS-PAGE of dissolved crystals

B1: human Cdk9 ([…]), C-terminally His-tagged (enzyme)
chain: not shown
modifications: phospho-Thr186
Q: For B1, which “stoichiometry N” value is on record?
A: 1
